Experimental data taken from publication PMC12366332 (Applied and Environmental Microbiology, 2025).
Some peptides are written in HELM: one residue between dots, names in brackets for other building blocks, links after the first $.

Test: general procedure: Fmoc solid-phase peptide synthesis; Fmoc-Rink-ChemMatrix resin (0.69 mmol/g) or Fmoc-Rink-MBHA resin (0.56 mmol/g)
Conditions: whole synthesis

Q: For KKLfKKILKYL-NH2, which “final HPLC purity” value is on record?
A: 84%

Q: Which “final HPLC purity” value does the source give for cyclo(LLKKKWKKLQ) here?
A: >99%

Q: Which “final HPLC purity” value does the source give for FKLFKKILKVL-NH2 here?
A: >99%

Q: With “PEPTIDE1{[ac].K.K.K.[dF].K.K.I.L.K.Y.L.[am]}|PEPTIDE2{[Lau]}$PEPTIDE1,PEPTIDE2,4:R3-1:R2$$$V2.0” as the substance, how does the “final HPLC purity” value read?
A: >99%

Q: With “PEPTIDE1{[ac].K.K.L.[dF].K.K.I.K.K.Y.L.[am]}|PEPTIDE2{[But]}$PEPTIDE1,PEPTIDE2,9:R3-1:R2$$$V2.0” as the substance, how does the “final HPLC purity” value read?
A: >99%

Q: With “PEPTIDE1{[ac].K.K.L.[dF].K.K.I.L.K.Y.K.[am]}|PEPTIDE2{[Hex]}$PEPTIDE1,PEPTIDE2,12:R3-1:R2$$$V2.0” as the substance, how does the “final HPLC purity” value read?
A: >99%

Q: With “PEPTIDE1{[ac].K.K.L.[dF].K.K.I.L.K.Y.L.[am]}|PEPTIDE2{[But]}$PEPTIDE1,PEPTIDE2,10:R3-1:R2$$$V2.0” as the substance, how does the “final HPLC purity” value read?
A: >99%

Q: Which “final HPLC purity” value does the source give for KKlFKKILKYL-NH2 here?
A: 85%

Q: Which “final HPLC purity” value does the source give for “PEPTIDE1{[ac].K.K.[Lys(But)].[dF].K.K.I.L.K.Y.L.[am]}$$$$V2.0” here?
A: >99%

Q: For KKLFKKILKYL-NH2, which “final HPLC purity” value is on record?
A: >99%

Q: For “PEPTIDE1{[ac].K.K.L.[D-Lys(But)].K.K.I.L.I.Y.L.[am]}$$$$V2.0”, which “final HPLC purity” value is on record?
A: 91%

Q: Which “final HPLC purity” value does the source give for “PEPTIDE1{[ac].K.K.L.[dF].K.K.I.K.K.Y.L.[am]}|PEPTIDE2{[Lau]}$PEPTIDE1,PEPTIDE2,9:R3-1:R2$$$V2.0” here?
A: >99%

Q: Which “final HPLC purity” value does the source give for “PEPTIDE1{[ac].K.K.L.[dF].K.K.I.L.K.Y.L.[am]}|PEPTIDE2{[But]}$PEPTIDE1,PEPTIDE2,7:R3-1:R2$$$V2.0” here?
A: >99%

Q: Which “final HPLC purity” value does the source give for KKLFKKILKFL-NH2 here?
A: >99%

Q: With KKLFKKILKKL-NH2 as the substance, how does the “final HPLC purity” value read?
A: >99%

Q: With Ac-KK(COC11H23)LFKKILKYL-NH2 as the substance, how does the “final HPLC purity” value read?
A: >99%

Q: Which “final HPLC purity” value does the source give for “PEPTIDE1{[ac].K.K.L.[D-Lys(But)].K.K.I.L.K.Y.L.[am]}$$$$V2.0” here?
A: >99%

Q: With Ac‐KKLFKKIK(COC3H7)KYL‐NH2 as the substance, how does the “final HPLC purity” value read?
A: >99%

Q: For Ac-KKLfKKILKYK(COC3H7)-NH2, which “final HPLC purity” value is on record?
A: >99%

Q: Which “final HPLC purity” value does the source give for KKLFKKILKVL-NH2 here?
A: 82%

Q: With “PEPTIDE1{[ac].K.K.L.H.K.K.I.L.K.K.L.[am]}|PEPTIDE2{[But]}$PEPTIDE1,PEPTIDE2,11:R3-1:R2$$$V2.0” as the substance, how does the “final HPLC purity” value read?
A: >99%

Q: With Ac-KKLFKKIK(COC5H11)KYL-NH2 as the substance, how does the “final HPLC purity” value read?
A: >99%

Q: With KkLFKKILKYL-NH2 as the substance, how does the “final HPLC purity” value read?
A: >99%

Q: With “PEPTIDE1{[But].K.K.L.[dF].K.K.I.L.K.Y.L.[am]}$$$$V2.0” as the substance, how does the “final HPLC purity” value read?
A: >99%

Q: With KKLFKkILKYL-NH2 as the substance, how does the “final HPLC purity” value read?
A: 80%

Q: With Ac-LKLFKKILKVL-NH2 as the substance, how does the “final HPLC purity” value read?
A: >99%

Q: With “PEPTIDE1{[ac].K.K.K.[dF].K.K.K.L.K.Y.L.[am]}|PEPTIDE2{[But]}$PEPTIDE1,PEPTIDE2,4:R3-1:R2$$$V2.0” as the substance, how does the “final HPLC purity” value read?
A: >99%

Q: With “PEPTIDE1{[ac].K.K.L.[dF].K.K.I.L.K.Y.L.[am]}|PEPTIDE2{[But]}$PEPTIDE1,PEPTIDE2,6:R3-1:R2$$$V2.0” as the substance, how does the “final HPLC purity” value read?
A: >99%

Q: Which “final HPLC purity” value does the source give for “PEPTIDE1{[ac].K.K.L.[dF].K.K.K.L.K.Y.L.[am]}|PEPTIDE2{[Hex]}$PEPTIDE1,PEPTIDE2,8:R3-1:R2$$$V2.0” here?
A: >99%

Q: For “PEPTIDE1{[ac].K.K.L.[dF].K.K.I.L.K.Y.L.[am]}|PEPTIDE2{[But]}$PEPTIDE1,PEPTIDE2,2:R3-1:R2$$$V2.0”, which “final HPLC purity” value is on record?
A: >99%

Q: For Ac-KKLFKKILKK(COC3H7)L-NH2, which “final HPLC purity” value is on record?
A: >99%

Q: For “PEPTIDE1{[ac].K.K.L.[dF].K.K.[Lys(But)].L.K.Y.L.[am]}$$$$V2.0”, which “final HPLC purity” value is on record?
A: >99%

Q: With “PEPTIDE1{[ac].K.K.L.[dF].K.K.I.L.K.K.L.[am]}|PEPTIDE2{[But]}$PEPTIDE1,PEPTIDE2,11:R3-1:R2$$$V2.0” as the substance, how does the “final HPLC purity” value read?
A: >99%

Q: Which “final HPLC purity” value does the source give for Ac-KKLFKKILKK(COC5H11)L-NH2 here?
A: >99%
